This note sets out measurements from PubChem BioAssay AID720533 (National Center for Advancing Translational Sciences (NCATS), 2013).

Values joined by “and” are separate entries in the source; they are usually repeats but may differ in a detail not shown here. Equal entries are not always repeated. The hits were mostly taken out for another list; the other results follow. Records with an inconclusive call do not appear. Active and inactive are the calls of the source. The call rests on the fitted dose curve; tested in HEK293 cells.

A short description of this assay: qHTS for Inhibitors of binding or entry into cells for Lassa Virus. As to conditions: Lassa virus pseudotyped entry inhibition, cell-based qHTS. Background: In qHTS, concentration-response curves come from the screen itself.
On the % scale 0 is the no-effect control and ±100 the full control effect.

On to `CC(Cc1ccc(O)cc1)NCC(O)c1cc(O)cc(O)c1` (stereo not given), for which the activity change, negative = inhibition (at 17.8 µM (top of the series)) was inactive: -2.31% and the activity change, negative = inhibition (at 49.2 µM (top of the series)) was inactive: -14.1%.

On to `COc1ccc(C[C@H](C)NC[C@@H](O)c2ccc(O)c(NC=O)c2)cc1`, for which, under “at 49.2 µM (top of the series)”, the activity change, negative = inhibition is inactive: -11.9%. As to `Clc1ccc(N2CCN(Cc3c[nH]c4ncccc34)CC2)cc1`, under “at 49.2 µM (top of the series)”, the activity change, negative = inhibition is inactive: -12.3% and inactive: 12%. On the same count and under the same terms, the result for `COc1ccc(C[C@@H](C)NC[C@H](O)c2ccc(O)c(NC=O)c2)cc1` reads inactive: -17.8%.
